A mixed list of measured activities; the numbers were collected in NIAID ChemDB.

Shared fields: tests in culture; agent: Varicella zoster virus; read-out: EC50

Rows are shuffled and stem from different studies.

smiles | cell line | read by | strain or isolate | value
Nc1ncnc2c1ncn2C[C@@H](CO)OCP(=O)(O)O | HEL | plaque count | PFA-resistant/A | 0.048 µg/mL
COC(=O)[C@H](C)NP(=O)(OC[C@H]1C/C1=C/n1cnc2c(N)nc(N)nc21)Oc1ccccc1 | HFF | plaque count | - | 1 µM
Nc1ncc2c(ncn2COC(CO)CO)n1 | HEL | plaque count | 07/1 (TK-) | 0.7 µM
O=c1[nH]c(=O)n([C@H]2C[C@H](O)[C@@H](CO)O2)cc1C1CCC1 | HEL | plaque count | OKA YS | >170 µM
Nc1ncnc2c1ncn2CCOCP(=O)(O)O | HEL | cytopathic effect | Oka PMEDAP-resistant | 120.4 µM
O=C(O)P(=O)(O)O | HEL | plaque count | PFA-resistant/A | 72.1 µg/mL
O=c1ccn([C@H]2C[C@H](O)[C@@H](CO)S2)c(=O)[nH]1 | HEL | plaque count | OKA YS | 35 µM
Nc1ccn(C[C@H]2COP(=O)(O)CO2)c(=O)n1 | HEL | plaque count | OKA (TK+) | 0.64 µM
COC(=O)[C@H](C)NP(=O)(OC[C@H]1C/C1=C\n1cnc2c(N)nc(N)nc21)Oc1ccccc1 | HFF | plaque count | - | >211 µM
Cc1cccc2c1OP(=O)(OC[C@H]1O[C@@H](n3cc(/C=C/Br)c(=O)[nH]c3=O)C[C@@H]1OC(=O)[C@H](N)C(C)C)OC2 | HELF | plaque count | OKA | 0.027 µg/mL
CCc1cn([C@H]2C[C@H](O)[C@@H](CO)S2)c(=O)[nH]c1=O | HEL | plaque count | OKA YS | 0.087 µM
CC(C)(C)c1cccc2c1OP(=O)(OC[C@H]1O[C@@H](n3cc(/C=C/Br)c(=O)[nH]c3=O)C[C@@H]1O)OC2 | HELF | plaque count | OKA | 0.011 µg/mL
Nc1ncnc2c1ncn2[C@@H]1O[C@H](CO)[C@@H](O)[C@@H]1O | HEL | plaque count | 13 isolates | 21.6 µM
Cc1cccc2c1OP(=O)(OC[C@H]1O[C@@H](n3cc(/C=C/Br)c(=O)[nH]c3=O)C[C@@H]1OC(=O)[C@@H]1CCCN1)OC2 | HELF | plaque count | OKA | 0.032 µg/mL
Nc1ncnc2c1ncn2[C@@H]1C=C(CO)[C@@H](O)[C@H]1O | HEL | cytopathic effect | YS | 2.4 µg/mL
Nc1ncnc2c1ncn2C[C@H]1COP(=O)(O)CO1 | HEL | plaque count | YS (TK+) | 0.43 µM
O=c1[nH]c(=O)n([C@H]2C[C@H](O)[C@@H](COP3(=O)OCc4c(Cl)cccc4O3)O2)cc1/C=C/Br | HELF | plaque count | OKA | 0.011 µg/mL
C[C@H](COc1cc(N)nc(N)n1)OCP(=O)(O)O | HEL | cytopathic effect | 07/1 (TK-) | 5.7 µg/mL
O=c1[nH]c(=O)n([C@H]2C[C@H](O)[C@@H](COP3(=O)OCc4ccccc4O3)O2)cc1/C=C/Br | HELF | plaque count | OKA | 0.044 µg/mL
O=C(O)CP(=O)(O)O | HEL | plaque count | PCV-resistant/B | 17.3 µg/mL
O=c1[nH]c(=O)n([C@H]2C[C@H](O)[C@@H](CO)O2)cc1/C=C/Br | HEL | plaque count | OKA YS | 0.004 µM
COC(=O)C(C)NOP(OC[C@H]1C/C1=C/n1cnc2c(N)[nH]c(=O)nc21)Oc1ccccc1 | HFF | cytopathic effect | - | >205 µM
Cc1cccc2c1OP(=O)(OC[C@H]1O[C@@H](n3cc(/C=C/Br)c(=O)[nH]c3=O)C[C@@H]1OC(=O)[C@H](N)CC(C)C)OC2 | HELF | plaque count | OKA | 0.01 µg/mL
Cc1cn([C@H]2C[C@H](O)[C@@H](CO)S2)c(=O)[nH]c1=O | HEL | plaque count | OKA YS | 0.09 µM
Nc1nc2c(ncn2[C@H]2C=C[C@@H](CO)CC2)c(=O)[nH]1 | HEL | plaque count | OKA (TK+) | 1.9 µg/mL
Nc1ccn([C@@H]2C[C@@H](O)[C@H](CO)O2)c(=O)n1 | HFF | - | - | >100 µM
Nc1nc2c(ncn2COC(CO)CO)c(=O)[nH]1 | HEL | plaque count | ACV-resistant | 2.5 µg/mL
Nc1nc(OCCOCP(=O)(O)O)cc(OCCOCP(=O)(O)O)n1 | HEL | cytopathic effect | YS/R (TK-) | 50 µg/mL
CC(=O)CCC(=O)O[C@H]1C[C@H](n2cc(/C=C/Br)c(=O)[nH]c2=O)O[C@@H]1COP1(=O)OCc2ccccc2O1 | HELF | plaque count | OKA | 0.046 µg/mL
Nc1nc(F)nc2c1ncn2/C=C1\CC1CO | HFF | cytopathic effect | - | >69 µM
Cc1cccc2c1OP(=O)(OC[C@H]1O[C@@H](n3cc(/C=C/Br)c(=O)[nH]c3=O)C[C@@H]1OC(=O)C(C)(C)C)OC2 | HELF | plaque count | OKA | 0.076 µg/mL
Nc1nc2c(ncn2[C@@H]2C=C[C@H](CO)CC2)c(=O)[nH]1 | HEL | plaque count | 07/1 (TK-) | 2.1 µg/mL
C[C@H](N)C(=O)O[C@H]1C[C@H](n2cc(/C=C/Br)c(=O)[nH]c2=O)O[C@@H]1COP1(=O)OCc2ccccc2O1 | HELF | plaque count | OKA | 0.03 µg/mL
COc1nc(N)nc2c1ncn2C=C1CC1CO | HFF | plaque count | - | 23.9 µM

A second listing of 5 rows from above:

smiles,cell line,read by,strain or isolate,value
Nc1ncnc2c1ncn2C[C@@H](CO)OCP(=O)(O)O,HEL,plaque count,PFA-resistant/A,0.048 µg/mL
Cc1cn([C@H]2C[C@H](O)[C@@H](CO)S2)c(=O)[nH]c1=O,HEL,plaque count,OKA YS,0.09 µM
O=c1[nH]c(=O)n([C@H]2C[C@H](O)[C@@H](CO)O2)cc1/C=C/Br,HEL,plaque count,OKA YS,0.004 µM
O=c1[nH]c(=O)n([C@H]2C[C@H](O)[C@@H](COP3(=O)OCc4ccccc4O3)O2)cc1/C=C/Br,HELF,plaque count,OKA,0.044 µg/mL
CC(=O)CCC(=O)O[C@H]1C[C@H](n2cc(/C=C/Br)c(=O)[nH]c2=O)O[C@@H]1COP1(=O)OCc2ccccc2O1,HELF,plaque count,OKA,0.046 µg/mL

An empty or dashed field is not shown. ECn is the concentration giving n% inhibition of infection, replication or growth.